Anti-infective test results gathered from many reports (values: NIAID ChemDB through PubChem).

Common to all: tests in culture; agent: Candida glabrata

An empty or dashed field is not shown. a–b is a range or a potency band. ECn: concentration that inhibits the pathogen or its effect by n%. Lines come from different laboratories, so protocols vary. MIC50, MIC90 and the like: level of inhibition, or share of isolates inhibited.

structure | strain | method | setting | read-out | value
Cc1ccc(C(C)C)c(O)c1 | PYCC 2418 | broth dilution / turbidity | - | EC50 | 0.54 µM
C=CCc1ccc(OC)cc1 | - | - | - | MIC90 | 0.016–0.025 µg/mL
O=[N+]([O-])c1cc(CSc2nnnn2-c2ccc(Cl)c(Cl)c2)cc([N+](=O)[O-])c1 | 20/I | broth dilution | 24 h | EC80 | >125 µM
CN(C/C=C/C#CC(C)(C)C)Cc1cccc2ccccc12 | ATCC MYA2950 | broth dilution | biofilm | MIC100 | >100 µg/mL
COc1cc(C[C@H](C)[C@H](C)Cc2ccc(O)c(O)c2)ccc1O | CCC 115-2000 | broth dilution | - | MIC80 | 62.5 µg/mL
O=C(N/N=C\n1ccnc1)c1ccccc1 | ATCC 2001 | broth dilution | - | MIC50 | <1.2 µM
C[C@@H]1[C@H](O)[C@@H](C)/C=C/C=C/CC/C=C/C=C/C=C/C=C/C(O[C@H]2O[C@H](C)[C@@H](O)[C@H](N)[C@@H]2O)CC2O[C@](O)(CC(O)C(O)CCC(O)CC(O)CC(O)CC(=O)O[C@H]1C)CC(O)C2C(=O)O | Clinical isolate | broth dilution | - | MIC | 3.125 µg/mL
C/C(=N\NC(=S)Nc1ccccc1)c1ccc(-n2ccnc2)cc1 | ATCC 2001 | broth dilution | - | MIC50 | >745 µM
c1ccc([Se][Se]c2ccccc2)cc1 | ATCC 2001 | broth dilution | - | MFC | >64 µg/mL
O=C(O)c1cccc(-n2nnnc2SCc2cc([N+](=O)[O-])cc([N+](=O)[O-])c2)c1 | 20/I | broth dilution | 24 h | EC80 | >500 µM
O=C(O)c1ccccc1 | PYCC 2418 | - | - | EC50 | 0.05 µM
C[C@@H](c1ncncc1F)[C@](O)(Cn1cncn1)c1ccc(F)cc1F | 77 isolates | - | - | MIC90 | 1 µg/mL
CCCCCCCCOc1ccc(-c2ccc(C(=O)NC3CC(NCCN)CNC(=O)[C@@H]4[C@@H](O)[C@@H](C)CN4C(=O)[C@@H](CO)NC(=O)[C@H]([C@H](O)Cc4ccccc4)NC(=O)[C@@H]4C[C@@H](O)CN4C(=O)[C@H]([C@@H](C)O)NC3=O)cc2)cc1 | NEM_7118432 | resazurin | - | MIC | 0.5 µg/mL
COc1cc(O)c2c(c1)OC(c1ccc(O)cc1)CC2=O | ATCC 90030 | broth dilution | - | MIC | 630 µg/mL
O=[N+]([O-])c1cc(CSc2nnnn2C2CCCCC2)cc([N+](=O)[O-])c1 | 20/I | broth dilution | 24 h | EC80 | >500 µM
O=Cc1cccc(O)c1O | PYCC 2418 | broth dilution / turbidity | - | EC50 | <0.01 µM
CC(=O)N/N=C(\C)c1ccc(-n2ccnc2)cc1 | ATCC 2001 | broth dilution | - | MIC50 | >1030 µM
Nc1nc(=O)n([C@H]2CS[C@@H](CO)O2)cc1F | 77 isolates | - | - | MIC90 | 0.25 µg/mL
O=C(N/N=C/c1ccc(-n2ccnc2)cc1)c1ccc([N+](=O)[O-])cc1 | ATCC 2001 | broth dilution | - | MIC50 | >745.6 µM
C[N+]1=CC2C(=O)c3nccc4ccnc(c34)C2C1 | - | - | - | MIC80 | >64 µg/mL
S=C(N/N=C/c1cnc[nH]1)Nc1ccccc1 | ATCC 2001 | broth dilution | - | MIC50 | >1480 µM
C[C@H](c1ncncc1F)[C@](O)(Cn1cncn1)c1ccc(F)cc1F | - | broth dilution | - | MIC80 | 0.18 µM
CC(=O)N/N=C/c1cnc[nH]1 | ATCC 2001 | broth dilution | - | MIC50 | >1643 µM
C[C@@H](c1ncncc1F)[C@](O)(Cn1cncn1)c1ccc(F)cc1F | Clinical isolates | broth dilution | - | MIC | 0.12 µg/mL
CC1=CC2C(N)=NC(N)=NC2C=C1c1ccc2c(N)nc(N)nc2c1 | ATCC 2001 | broth dilution | - | MIC | 1 µg/mL
O=[N+]([O-])c1cc(C[Se]c2nnnn2C2CCCCC2)cc([N+](=O)[O-])c1 | 20/I | broth dilution | 24 h | EC80 | >500 µM
CC[C@@H]([C@H](C)O)n1ncn(-c2ccc(N3CCN(c4ccc(OC[C@@H]5CO[C@@](Cn6cncn6)(c6ccc(F)cc6F)C5)cc4)CC3)cc2)c1=O | Clinical isolates | broth dilution | - | MIC | 0.5 µg/mL
O=[N+]([O-])c1cc(CSc2cccc[n+]2[O-])cc([N+](=O)[O-])c1 | 20/I | broth dilution | 48 h | EC80 | >500 µM
O=C(N/N=C/c1ccc(-n2ccnc2)cc1)c1ccc(Cl)cc1 | ATCC 2001 | broth dilution | - | MIC50 | 769.8 µM
O=[N+]([O-])c1cc(C[Se]c2nnnn2Cc2ccccc2)cc([N+](=O)[O-])c1 | 20/I | broth dilution | 48 h | EC80 | >500 µM
COC(CCCCCCCCCCCCCC[C@@H](OC1O[C@@H](CO)[C@@H](O)[C@@H](O)[C@@H]1O)[C@@H](C)N)CCCCCCCC1NCCc2cc(O)c(O)cc21 | - | - | - | MIC | 30 µg/mL
C[C@@H]1[C@H](O)[C@@H](C)/C=C/C=C/CC/C=C/C=C/C=C/C=C/C(O[C@H]2O[C@H](C)[C@@H](O)[C@H](N)[C@@H]2O)CC2O[C@](O)(CC(O)C(O)CCC(O)CC(O)CC(O)CC(=O)O[C@H]1C)CC(O)C2C(=O)O | MTCC 3019 | - | - | MIC | 150 µg/mL
O=[N+]([O-])c1cc(CSc2nnnn2Cc2ccccc2)cc([N+](=O)[O-])c1 | 20/I | broth dilution | 48 h | EC80 | >500 µM

A second listing of 3 rows from above:

structure | strain | method | setting | read-out | value
C[C@H](c1ncncc1F)[C@](O)(Cn1cncn1)c1ccc(F)cc1F | - | broth dilution | - | MIC80 | 0.18 µM
CC(=O)N/N=C(\C)c1ccc(-n2ccnc2)cc1 | ATCC 2001 | broth dilution | - | MIC50 | >1030 µM
O=[N+]([O-])c1cc(CSc2nnnn2C2CCCCC2)cc([N+](=O)[O-])c1 | 20/I | broth dilution | 24 h | EC80 | >500 µM